According to patent publication US20050124645A1, “Methods and compositions for increasing CD4lymphocyte immune responsiveness” (priority 1998, published 2005):

Test system: JAK3
Assay: JAK3 kinase activity (pSTAT5/STAT5 O.D. ratio) in CD4+ T lymphocytes CD4-ligated before anti-CD3 stimulation
Type: cell-based, human
Details: 20 U/ml, FIGS. 11A, 11B
Experimental: In this experiment, CD4^+ T cells were isolated and stimulated through TCR/CD3 with or without prior CD4 ligation as described in Example 1, and JAK3 kinase activity, indicated by phosphorylation of STATS, was determined.
Briefly, purified CD4^+ T lymphocytes were stimulated through TCR/CD3 with or without prior CD4 ligation as described in Example 1.20 U/ml IL-2 was added to the half of the cultures, and JAK3 kinase activity was determined as described in Examples 8 and 9.

## IL-2: cytokine which binds to receptors on T cells having γc; recombinant, R&D Systems
  JAK3 kinase activity (pSTAT5 to STAT5 O.D. ratio) in CD4-ligated T lymphocytes: restores/increases; also recorded: increases JAK3 kinase activity

“Also recorded” adds a separate entry of the source.
